Read-outs that look alike come from different tables or passages of the source.

The values that follow come from patent publication US20240409618A1 (WISTAR INSTITUTE OF ANATOMY AND BIOLOGY, published 2024).

The target of assay [1] is T1, RBD-F486A recombinant protein (AstraZeneca) (SARS-CoV-2, UniProt P0DTC2 319-541).
T1 construct: domain: RBD
The assay can be described thus: ELISA, pooled sera on coated mutant RBD.

The target in assay [2] is T1, RBD-F486A recombinant protein ….

B1: DMAb 2381_FcWT (antibody)
heavy: not shown
light: EVVLTQSPGTLSLSPGERATLSCRASQSVSSSYLAWYQQKPGQAPRLLIYGASSRATGIPDRFSGSGSGTDFTLTISRLEPEDFAVYHCQHFGSSSQWTFGQGTKVEIKRTVAAPSVFIFPPSDEQLKSGTASVVCLLNNFYPREAKVQWKVDNALQSGNSQESVTEQDSKDSTYSLSNTLTLSKADYEKHKVYACEVTHQGLSSPVTKSFNRGEC
notes: also called 2381 (WT); 2381(m1)
In the case of B1, the binding result in assay [1] is listed as “no binding”.

B2: DMAb 2381_FcTM (antibody)
heavy: QMQLVQSGPEVKKPGTSVKVSCKASGFTFTSSAVQWVRQARGQRLEWIGWIAVGSGNTNYAQKFQERVSITRDMSTSTAYMELSSLRSEDTAVYYCAAPYCSRTSCHDAFDIWGQGTKVTVSSASTKGPSVFPLAPSSKSTSGGTAALGCLVKDYFPEPVTVSWNSGALTSGVHTFPAVLQSSGLYSLSSVVTVPSSSLGTQTYICNVNHKPSNTKVDKKVEPKSCDKTHTCPPCPAPEFEGGPSVFLFPPKPKDTLMISRTPEVTCVVVDVSHEDPEVKFNWYVDGVEVHNAKTKPREEQYNSTYRVVSVLTVLHQDWLNGKEYKCKVSNKALPASIEKTISKAKGQPREPQVYTLPPSRDELTKNQVSLTCLVKGFYPSDIAVEWESNGQPENNYKTTPPVLDSDGSFFLYSKLTVDKSRWQQGNVFSCSVMHEALHNHYTQKSLSLSPGK
light: B1 light
Turning to B2, in assay [2], the binding result is given as “no binding”.
